Assay results reported in patent EP0176613A1, “A process for producing phosphoric acid and/or phosphates from wet-process phosphoric acid and an extractant used therein” (dated 1986).

Test: Solubility of the extractant in water
Conditions: extractant diluted with 40% kerosine

**Q.** For `CCCCOP(=O)(OCCCC)OCCCC`, which solubility in water is on record?
**A.** 380 PPM
